This assay deals with T1, S-protein RBD (WT) (Severe acute respiratory syndrome coronavirus 2, UniProt P0DTC2).
T1 construct: made in house; host or cells: Expi293F cells
Also on record: species or system SARS-CoV-2. The settings on record: read-out: IC50 against the S-protein RBD binding to immobilized heparin.

With mucopolysaccharide polysulfate [MPS], the IC50 was about 9 nM.

The values above are taken from patent US20240066051A1, “NASAL SPRAY USING PENTOSAN POLYSULFATE AND MUCOPOLYSACCHARIDE POLYSULFATE FOR COVID-19 PREVENTION AND TREATMENT” (priority 2022, published 2024).
